In patent US20160024159A1, “Potent and selective inhibitors of Nav1.7” (published 2016):

Assays:
Experiment in all cases: cell-based or functional assay
[1] = target: human voltage-gated sodium channel Nav1.3 (human) (UniProt Q9NY46)
[2] = target: human voltage-gated sodium channel Nav1.4 (human) (UniProt P35499)
[3] = target: human voltage-gated sodium channel Nav1.5 (human) (UniProt Q14524)
[4] = target: human Nav1.6 voltage-gated sodium channel (human) (UniProt Q9UQD0)
[5] = target: human voltage-gated sodium channel Nav1.7 (human) (UniProt Q15858)
[6] = target: human Nav1.4 voltage-gated sodium channel (human) (UniProt P35499)
[7] = target: human Nav1.7 voltage-gated sodium channel (human) (UniProt Q15858)

For “[Glu7]JzTx-V(1-29) (peptide; modification not given)”, the IC50 (IonWorks Quattro) [1] was 2800 nM, the IC50 (IonWorks Quattro) [2] was 2600 nM and the IC50 (IonWorks Quattro) [3] was greater than 5000 nM. It also gave a PX hNav1.6 Tonic IC50 [4] greater than 10000 nM and an IC50 (IonWorks Quattro) [5] of 560 nM.

Substance “Pra-[Nle6; Glu28; Trp29]JzTx-V(1-29) (peptide; modification not given)” has a Nav1.4/Nav1.7 [6] of 47, a PX hNav1.4 Tonic IC50 [6] of 36.7 nM and a PX hNav1.7 Tonic IC50 [7] of 0.782 nM.

“Pra-[Nle6; 5-BrW24]JzTx-V(1-29) (peptide; modification not given)” was tested, and the Nav1.4/Nav1.7 [6] was 7, the PX hNav1.4 Tonic IC50 [6] was 11 nM and the PX hNav1.7 Tonic IC50 [7] was 1.66 nM.

In the case of “Atz(NPEG10)-[Nle6; Glu28]JzTx-V(1-29) (peptide; modification not given)”, the PX hNav1.4 Tonic IC50 [6] is reported as 371 nM and the PX hNav1.7 Tonic IC50 [7] is reported as 3.08 nM.

Substance “Pra-[hPhe5; Nle6; Glu28]JzTx-V(1-29) (peptide; modification not given)” has a Nav1.4/Nav1.7 [6] of 431, a PX hNav1.4 Tonic IC50 [6] of 258 nM and a PX hNav1.7 Tonic IC50 [7] of 0.599 nM.

“Pra-[Nle6; Glu28]JzTx-V(1-29)-Gly-Free Acid (peptide; modification not given)” gave a Nav1.4/Nav1.7 [6] of 211, a PX hNav1.4 Tonic IC50 [6] of 1760 nM and a PX hNav1.7 Tonic IC50 [7] of 8.34 nM.

With “Glu-Pra-[Nle6; Glu28]JzTx-V(1-29) (peptide; modification not given)” the Nav1.4/Nav1.7 [6] was 152, the PX hNav1.4 Tonic IC50 [6] was 112 nM and the PX hNav1.7 Tonic IC50 [7] was 0.738 nM.

For “Homodimeric Conjugate No. 7 (peptide; modification not given)”, the PX hNav1.4 Tonic IC50 [6] was 200 nM and the PX hNav1.7 Tonic IC50 [7] was 2.12 nM.

“Pra-[Nle6; Glu28; Cha29]JzTx-V(1-29) (peptide; modification not given)” was tested, and the Nav1.4/Nav1.7 [6] was 62, the PX hNav1.4 Tonic IC50 [6] was 36.6 nM and the PX hNav1.7 Tonic IC50 [7] was 0.593 nM.

“Pra-[Nle6; 5-BrW24; Glu28]JzTx-V(1-29) (peptide; modification not given)” gave a Nav1.4/Nav1.7 [6] of 1040, a PX hNav1.4 Tonic IC50 [6] of 40.4 nM and a PX hNav1.7 Tonic IC50 [7] of 0.039 nM.

Substance “[Glu14]JzTx-V(1-29) (peptide; modification not given)” has an IC50 (IonWorks Quattro) [1] of 110 nM, an IC50 (IonWorks Quattro) [2] of 230 nM and an IC50 (IonWorks Quattro) [3] greater than 5000 nM. The PX hNav1.6 Tonic IC50 [4] was 146 nM and the IC50 (IonWorks Quattro) [5] was 20 nM.

For “Pra-[Phe6; Glu28]JzTx-V(1-29) (peptide; modification not given)”, the Nav1.4/Nav1.7 [6] was 45, the PX hNav1.4 Tonic IC50 [6] was 61.6 nM and the PX hNav1.7 Tonic IC50 [7] was 1.36 nM.

Substance “Pra-[Glu1, 11, 14, 28; Nle6]JzTx-V(1-29) (peptide)” has a Nav1.4/Nav1.7 [6] of 189, a PX hNav1.4 Tonic IC50 [6] of 1920 nM and a PX hNav1.7 Tonic IC50 [7] of 10.2 nM.

“[Glu23]JzTx-V(1-29) (peptide; modification not given)” showed an IC50 (IonWorks Quattro) [1] of 2000 nM, an IC50 (IonWorks Quattro) [2] greater than 5000 nM and an IC50 (IonWorks Quattro) [3] greater than 5000 nM. The PX hNav1.6 Tonic IC50 [4] was 9550 nM and the IC50 (IonWorks Quattro) [5] was 4000 nM.

In the case of “Pra-[Nle6; Glu8, 28]JzTx-V(1-29) (peptide; modification not given)”, the Nav1.4/Nav1.7 [6] is reported as 97, the PX hNav1.4 Tonic IC50 [6] is reported as 1580 nM and the PX hNav1.7 Tonic IC50 [7] is reported as 16.4 nM.

Substance “Pra-[Nle6; Glu12]JzTx-V(1-29) (peptide; modification not given)” has a Nav1.4/Nav1.7 [6] of 31, a PX hNav1.4 Tonic IC50 [6] of 37.2 nM and a PX hNav1.7 Tonic IC50 [7] of 1.19 nM.

“Pra-[Nle6; Glu28; Phe29]JzTx-V(1-29) (peptide; modification not given)” was tested, and the Nav1.4/Nav1.7 [6] was 785, the PX hNav1.4 Tonic IC50 [6] was 304 nM and the PX hNav1.7 Tonic IC50 [7] was 0.388 nM.

With “Pra-[Nle6; Phe7; Glu28]JzTx-V(1-29) (peptide; modification not given)” the Nav1.4/Nav1.7 [6] was 80, the PX hNav1.4 Tonic IC50 [6] was 1010 nM and the PX hNav1.7 Tonic IC50 [7] was 12.6 nM.

In the case of “Pra-[Nle6; Pro28]JzTx-V(1-29) (peptide; modification not given)”, the Nav1.4/Nav1.7 [6] is reported as 105, the PX hNav1.4 Tonic IC50 [6] is reported as 206 nM and the PX hNav1.7 Tonic IC50 [7] is reported as 1.97 nM.

“[Glu11]JzTx-V(1-29) (peptide; modification not given)” was tested, and the IC50 (IonWorks Quattro) [1] was 190 nM, the IC50 (IonWorks Quattro) [2] was 380 nM and the IC50 (IonWorks Quattro) [3] was greater than 5000 nM. For the same substance, the PX hNav1.6 Tonic IC50 [4] was 200 nM and the IC50 (IonWorks Quattro) [5] was 39 nM.
